From ChEMBL document CHEMBL3988442, “University of Dundee, Small-Polar-MMV Screening Library” (2021).

Mtb glucose medium: 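Whole-cell growth test on Mycobacterium tuberculosis, read after 3 days in glucose-containing 7H9 medium; the read-out is not stated. Concentration: 500 µM. The record gives no direction; compounds that gave an IC50 in retests scored well above the rest, so higher reads as more growth inhibition. About 18,000 compounds were tested under these conditions; 7.9% (about 1,400) showed 50% or more at least once.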
Mtb cholesterol medium: 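Whole-cell growth test on Mycobacterium tuberculosis, read after 4 days in a medium based on cholesterol and the lipid DPPC; the read-out is not stated. Tested at 500 µM. Higher reads as more growth inhibition (inferred: compounds with an IC50 in retests scored well above the rest). Of about 18,000 compounds tested this way, about 900 (5%) reached 50% or more in at least one test.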

Results are given as percent effect.
The record does not define 0% and 100%; most values in the screen are far below 50% and negative numbers occur (in some assays of this library far below -100).
Many other results are left out here, so strong results are more common than in the screen.
A dash means the value is not listed here; it may have been measured.

| compound | Mtb glucose medium | Mtb cholesterol medium |
|---|---|---|
| `FC(F)(F)c1cccc(NCc2cccnc2)n1` | 84.2% | 86.25% |
| `CCC(CNC(=O)c1ccncc1)N1CCCC1` (stereo unspecified) | - | -9.663% |
| `COC(=O)c1ccc2[nH]c(CN)nc2c1` | 15.53% | - |
| `O=C1CN(CC(=O)N2CCCCCCC2)CCN1` | 8.697% | - |
| `c1ccc(N2CCCN3CCCC3C2)nc1` (stereo unspecified) | - | 9.653% |
| `CCC(N)C(=O)N1CCN(c2cc(C)ccc2C)CC1` (stereo unspecified) | 20.85% | -17.47% |
| `Cc1nn(CCO)c(C)c1CN1CCCC(C#N)C1` (stereo unspecified) | 4.153% | - |
| `O=C(Cc1ccc(F)cc1)N1CCNCC1` | 2.166% | - |
| `COC[C@@H]1CNC[C@H]1C(=O)NC1CC1` | -6.785% | - |
| `Clc1ccc(CN2CCNCC2)nc1` | - | 4.667% |
| `CNC(=O)CNC(=O)c1ccccc1O` | -9.316% | - |
| `CC(=O)N1CCC(CN(C)Cc2ccc(Br)o2)C1` (stereo unspecified) | 50.41% | - |
| `COCC(=O)N1CCCN(CCn2cc(Cl)cn2)CC1` | - | -4.726% |
| `O=S1(=O)CCN(c2ncc(C(F)(F)F)cc2Cl)CC1` | 0.9178% | -2.533% |
| `CN(C)S(=O)(=O)CCCS(=O)(=O)Cc1cccc(F)c1` | 4.11% | - |
| `CC(C(=O)Nc1cc(Cl)c(Cl)cn1)S(C)(=O)=O` (stereo unspecified) | -3.54% | - |
| `COc1cccc(NC(=O)CN(CC(N)=O)C(C)C)c1` | - | 3.833% |
| `NC(=O)CN1CCC(NC(=O)c2csc(Br)c2)CC1` | 36.1% | - |
| `CCC1(CO)CCCN(c2ccncc2F)C1` (stereo unspecified) | 31.81% | - |
| `Cc1cc(NC(=O)CN(C)C)ccc1C(=O)NC(C)C` | 6.732% | - |
| `c1coc(CNCc2ccc3c(c2)OCCO3)c1` | - | -0.04457% |
| `N[C@H]1CC[C@H](Oc2ncccc2Cl)CC1` | 59.43% | - |
| `Cc1cccc(OCC(O)CNc2ncccc2F)c1` (stereo unspecified) | 73.34% | 71.35% |
| `Cc1nc(CN(C)C(=O)c2nc(C(C)C)cs2)no1` | - | 55.46% |
| `Cc1[nH]ncc1C(=O)NCCCSCC(C)C` | 57.05% | - |
| `O=C(CCc1ccccc1)N1CC(c2cccnc2)C1` | 65.55% | 59.7% |
| `O=C(NCCC1CCCCO1)NC1CC=CC1` (stereo unspecified) | 23.44% | 19.85% |
| `OCCC1CCCN1Cc1ccc2ccccc2n1` (stereo unspecified) | 15.87% | - |
| `Nc1nc(SCc2ccccc2F)n[nH]1` | 12.13% | 10.8% |
| `CCOc1ncc(C(=O)NCc2ccnn2C)cc1Cl` | 48.07% | 33% |
| `CCN1CCN(C(=O)Cc2ccc(OC)cc2)CC1` | 22.06% | - |
| `NCCc1nc(-c2cccc(Cl)c2)no1` | 65.4% | 72.04% |
| `O=C(c1cccc(F)c1)N1CCN(c2nccs2)CC1` | 53.05% | - |
| `CC(C)NC(=O)C(C)N1CCNCC1` (stereo unspecified) | - | -4.53% |
| `COCCN(Cc1ccco1)C(=O)CCn1cccn1` | - | -8.39% |
| `CN(C)CCNC(=O)c1ccc2c(c1)NC(=O)CO2` | 7.48% | - |
| `CCC(N)(CC)CNS(=O)(=O)c1cccc(C(C)=O)c1` | - | -11.02% |
| `O=C(NCc1ccccc1)N1CCNCC(O)C1` (stereo unspecified) | - | -16.47% |
| `O=S(=O)(N1CCCCC1)N(Cc1cccnc1)C1CC1` | 47.73% | - |
| `CCSCC(C)N(C)C(=O)c1cccc2nn[nH]c12` (stereo unspecified) | 9.617% | -9.044% |
| `CNC1CCCNC1=O` (stereo unspecified) | -0.8677% | - |
| `CCC(C)NC(=O)Nc1cccc(C(=O)NC)c1` (stereo unspecified) | -2.738% | - |
| `NC(=O)C1CCC(NC(=O)c2cc(F)cc(F)c2)CC1` (stereo unspecified) | 14.87% | - |
| `CSc1ccc(CN(C)[C@H]2COC[C@@H]2O)cc1` | 28.67% | - |
| `COC(=O)CCN1CCN(c2cccc(OC)c2)CC1` | - | -13.63% |